What was measured:
Type in all cases: toxicity, cell-based
Details in all cases: read-out: Ratio CC50/EC50
[1] = Selectivity index, ratio of CC50 for cytotoxicity against HEK293T/`17 cells assessed as inhibition of cell growth to EC50 for antiviral activity against SARS-CoV2 Delta infected in African green monkey Vero E6 cells assessed as reduction in viral plaques
[2] = Selectivity index, ratio of CC50 for cytotoxicity against HEK293T/`17 cells assessed as inhibition of cell growth to EC50 for antiviral activity against SARS-CoV2 USA-WA1/2020 infected in African green monkey Vero E6 cells assessed as reduction in viral plaques
[3] = Selectivity index, ratio of CC50 for cytotoxicity against HEK293T/`17 cells assessed as inhibition of cell growth to EC50 for antiviral activity against SARS-CoV2 Beta infected in African green monkey Vero E6 cells assessed as reduction in viral plaques

Measured: selectivity ratio

C[C@@H](OC(C)(C)C)[C@H](NC(=O)OCc1ccccc1)C(=O)N1C[C@H]2[C@@H]([C@H]1C(=O)N[C@H](C=O)C[C@@H]1CCNC1=O)C2(C)C
56: [1] | [2] | [3]

CC(C)(C)[C@H](NC(=O)OCc1ccccc1)C(=O)N1C[C@H]2[C@@H]([C@H]1C(=O)N[C@H](C=O)C[C@@H]1CCNC1=O)C2(C)C
56: [1] | [2] | [3]
